Compound potency records, mixed from different reports. Data source: NIAID ChemDB in PubChem.

Common to all: tests in culture

A number after MIC or MFC names an inhibition level or a share of isolates. Lines come from different laboratories, so protocols vary.

| SMILES | species | strain or isolate | measure | result |
|---|---|---|---|---|
| CCCCCCCC[N+](C)(C)COC1CCCCCCCCCCC1 | Staphylococcus aureus | ATCC33592 | MBC | 128 µM |
| O=C(O)NC[C@H]1CC(c2ccc(N3CCN(C(=O)CO)CC3)c(F)c2)=NO1 | Staphylococcus epidermidis | UC12084 | MIC | 1 µg/mL |
| CC(=O)NC[C@H]1CN(c2ccc(-c3ccn(C)n3)c(F)c2)C(=O)O1 | Staphylococcus epidermidis | UC12084 (methicillin-resistant) | MIC | 2 µg/mL |
| CCCCCCCCCCCCSC[N+](C)(C)CCCCCCCCCCCC | Staphylococcus aureus | ATCC 6538 | MBC | 5.38 µM |
| Cc1c(NCCO)c(F)cc2c(=O)c(C(=O)O)cn(-c3cc(N)c(F)cc3F)c12 | Staphylococcus aureus | 27 isolates | MIC50 | 0.015 µg/mL |
| CC(=O)NC[C@H]1CN(c2ccc(-c3ccn(CC#N)n3)c(F)c2)C(=O)O1 | Staphylococcus epidermidis | UC12084 (methicillin-resistant) | MIC | 1 µg/mL |
| O=C(O)NC[C@H]1CC(c2cc(F)c(N3CCOCC3)c(F)c2)=NO1 | Staphylococcus epidermidis | UC12084 | MIC | 2 µg/mL |
| CC(=O)NC[C@H]1CN(c2ccc(-c3nsc(C#N)n3)c(F)c2)C(=O)O1 | Staphylococcus epidermidis | UC12084 (methicillin-resistant) | MIC | 2 µg/mL |
| Cc1c(NCCCO)c(F)cc2c(=O)c(C(=O)O)cn(-c3cc(N)c(F)cc3F)c12 | Staphylococcus aureus | 27 isolates (methicillin-resistant) | Mean MIC | 0.014 µg/mL |
| CCCCCCCCCCCC[N+](C)(C)CSCCCCCCCC | Staphylococcus aureus | ATCC 6538 | MBC | 12.1 µM |
| CC(=O)NC[C@H]1CN(c2ccc(-c3csc(C)c3)c(F)c2)C(=O)O1 | Staphylococcus epidermidis | UC12084 (methicillin-resistant) | MIC | 0.5 µg/mL |
| CCCCCCCCCCCC[N+](C)(C)COC1CCCC1 | Staphylococcus aureus | ATCC33592 | MBC | 14.4 µM |
| C=CCn1cc(-c2ccc(N3C[C@H](CNC(C)=O)OC3=O)cc2F)cn1 | Staphylococcus epidermidis | UC12084 (methicillin-resistant) | MIC | 0.5 µg/mL |
| O=C(O)NC[C@H]1CC(c2ccc(-n3ccnc3)c(F)c2)=NO1 | Staphylococcus epidermidis | UC12084 | MIC | 1 µg/mL |
| CCCCCCCCCCOC[N+](C)(C)CCCCCCCC | Staphylococcus aureus | ATCC33592 | MBC | 13.7 µM |
| COC(=O)N1CC=C(c2ccc(C3=NO[C@H](CNC(=O)O)C3)cc2)CC1 | Staphylococcus epidermidis | UC12084 | MIC | >16 µg/mL |
| CC(=O)NC[C@H]1CN(c2ccc(-c3ccnn3C)c(F)c2)C(=O)O1 | Staphylococcus epidermidis | UC12084 (methicillin-resistant) | MIC | ≤0.5 µg/mL |
| CCCCCCCCCCCC[N+](C)(C)COC1CCCCCC1 | Staphylococcus aureus | ATCC33592 | MBC | 26.6 µM |
| Cc1c(N)c(F)cc2c(=O)c(C(=O)O)cn(-c3cc(N)c(F)cc3F)c12 | Staphylococcus aureus | 27 isolates (methicillin-resistant) | MIC50 | 0.015 µg/mL |

Again, the opening 2 rows:

SMILES | species | strain or isolate | measure | result
CCCCCCCC[N+](C)(C)COC1CCCCCCCCCCC1 | Staphylococcus aureus | ATCC33592 | MBC | 128 µM
O=C(O)NC[C@H]1CC(c2ccc(N3CCN(C(=O)CO)CC3)c(F)c2)=NO1 | Staphylococcus epidermidis | UC12084 | MIC | 1 µg/mL